pIC50: −log10 of the molar value. Some compounds may have been tested in ways that are not shown here.
Tests used:
Plasmodium falciparum [1] = test: In vitro antimalarial activity against Plasmodium falciparum D6; assay type: functional, organism-based
Plasmodium falciparum [2] = test: In vitro antimalarial activity against Plasmodium falciparum W-2; assay type: functional, organism-based

C1OOCN2COOCN1COOC2
pIC50 (Plasmodium falciparum [1]): 5.57 | pIC50 (Plasmodium falciparum [2]): 5.42

Source: ChEMBL document CHEMBL1124338, “Amine peroxides as potential antimalarials” (J Med Chem, 1989)
